Reference: patent EP1077967B1, “BIPHENYL OXO-ACETIC ACIDS USEFUL IN THE TREATMENT OF INSULIN RESISTANCE AND HYPERGLYCEMIA” (Wyeth, priority 1998, dated 1999)

Tested on: rat hepatic microsomal PTPases
Assay: Inhibition of tri-phosphorylated insulin receptor dodecaphosphopeptide dephosphorylation by rat hepatic PTPases (malachite green)
Assay type: biochemical
Settings: PTPase activity, compound at 50 µM, rat liver microsomal fraction

SMILES: O=[As]c1ccccc1 (stereo not shown)
- % Change from Control: -57%
